Data as given in PubChem BioAssay AID1259414 (Drosophila RNAi Screening Center, 2018).

Purpose: 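Fly genes that alter Wolbachia amount inside host cells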 (primary screen)
Cell system: Drosophila JW18 cells infected with Wolbachia
Knock-down reagent: long dsRNA against Drosophila genes, 0.25 µg dsRNA per well of a 384-well plate
Time to read-out: 5 days
Conditions: cells persistently infected with Wolbachia before knock-down; no added drug
Measured: 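Automated imaging of bacterial rRNA staining divided by host cell count, reported as plate-normalised robust z-score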
Direction: Wolbachia per cell robust z: higher = more Wolbachia per host cell than the plate typical
Call rule: 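Hit when robust z is 1.5 or more, or -1.5 or less, in at least two of three replicates; excludes dsRNAs with several or no targets, genes not expressed in JW18 and well A1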
The deposit covers about 24,000 reagents; below is an unselected part of those with a known target gene and a result. Of all reagents, about 1,210 (5%) were called active. 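Inactive calls also include excluded dsRNAs with several or no targets, genes unexpressed in JW18, and well A1, regardless of score.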 The numbers tell different reagents against one gene apart. Names joined by + are all predicted targets of the reagent.

target,reagent,"Wolbachia per cell robust z, rep 1","Wolbachia per cell robust z, rep 2","Wolbachia per cell robust z, rep 3",Call
CG42751 (GeneID 10178957),1,-1.22,-0.745,0.0299,inactive
Cyp317a1 (GeneID 36667),1,-0.833,-0.101,-0.367,inactive
Tao (GeneID 32948),1,0.225,0.197,0.38,inactive
Tao (GeneID 32948),2,2.13,4.22,0.339,active
Tao (GeneID 32948),3,-0.363,-1.86,0.397,inactive
Tao (GeneID 32948),4,-3.29,0.628,-0.0149,inactive
Alg11 (GeneID 40402),1,-2.07,1.1,1.26,inactive
CG42514 (GeneID 8674108),1,0.436,-0.813,-0.598,inactive
Taz (GeneID 36405),1,-3.29,-6.21,-3.78,active
Taz (GeneID 36405),2,0.102,-0.658,0.396,inactive
Taz (GeneID 36405),3,-0.987,-0.145,-2.74,inactive
tw (GeneID 31024),1,-0.844,-0.875,0.417,inactive
fu (GeneID 32855),1,0.298,-0.359,0.428,inactive
fu (GeneID 32855),2,-0.00557,-0.152,-3.94,inactive
CG11630 (GeneID 35429),1,1.36,1.16,-1.66,inactive
Ank (GeneID 43770),1,-1.57,0.862,-0.917,inactive
Ank (GeneID 43770),2,-0.705,-0.492,-2.45,inactive
GstO1 (GeneID 38975),1,0.676,1.18,-0.0949,inactive
GstO1 (GeneID 38975),2,0.542,0.953,-0.44,inactive
GstO1 (GeneID 38975),3,1.24,0.615,-2.45,inactive
CG34132 (GeneID 4379884),1,1.36,0.812,-4.03,inactive
CG9304 (GeneID 37500),1,0.356,-1.57,-3.75,active
CG9304 (GeneID 37500),2,-3.46,0.462,-1.65,active
CG5347 (GeneID 32403),1,-0.409,-1.41,0.133,inactive
SP1029 (GeneID 53473),1,-0.233,-0.703,0.844,inactive
SP1029 (GeneID 53473),2,-0.65,0.56,-0.868,inactive
CG16758 (GeneID 38315),1,0.43,1.33,-0.044,inactive
CG16758 (GeneID 38315),2,-0.732,-0.614,0.0292,inactive
CG16758 (GeneID 38315),3,-0.148,0.601,0.724,inactive
bcn92 (GeneID 31186),1,-2.08,0.561,0.372,inactive
bcn92 (GeneID 31186),2,-1.09,-4.87,-0.617,inactive
CG34183 (GeneID 5740752),1,-1.47,-0.924,-1.33,inactive
Nup358 (GeneID 43041),1,-3.3,1.34,0.631,inactive
Nup358 (GeneID 43041),2,0.323,-0.146,1.69,inactive
CG8003 (GeneID 39210),1,-0.267,-0.143,0.836,inactive
Pxn (GeneID 38326),1,1.45,-1.72,0.905,inactive
Pxn (GeneID 38326),2,-1.88,-0.161,0.902,inactive
loj (GeneID 38698),1,-1.15,0.499,0.674,inactive
CG31661 (GeneID 33330),1,-5.41,-0.359,-1.26,inactive
CG31661 (GeneID 33330),2,-0.194,-0.528,0.518,inactive
fusl (GeneID 33765),1,-1.14,-7.48,-0.552,inactive
fusl (GeneID 33765),2,1.77,0.384,0.191,inactive
qsm (GeneID 47065),1,0.348,-0.305,0.352,inactive
qsm (GeneID 47065),2,0.0256,-4.38,0.181,inactive
qsm (GeneID 47065),3,0.567,2.16,-0.915,inactive
Ir94d (GeneID 7354412),1,-0.418,0.617,0.808,inactive
Irk1 (GeneID 42742),1,0.965,-1.33,0.856,inactive
Irk1 (GeneID 42742),2,0.932,-0.859,-6.06,inactive
Irk1 (GeneID 42742),3,-0.62,0.653,-0.389,inactive
CG32639 (GeneID 318134),1,-0.171,-1.19,-9.67,inactive
CG14297 (GeneID 42260),1,-0.521,-0.0531,-0.171,inactive
Fgop2 (GeneID 33971),1,0.639,1.9,2.39,active
CG42238 (GeneID 7354398),1,-0.32,-0.0373,0.882,inactive
SP (GeneID 39494),1,0.63,-0.206,0.947,inactive
Pex2 (GeneID 38941),1,0.511,-8.69,0.619,inactive
CG4613 (GeneID 39586),1,-1.53,-1.12,0.651,inactive
CG4613 (GeneID 39586),2,-1,0.17,0.764,inactive
MESK4 + CG31274,1,-0.411,-0.904,-1.75,inactive
CG4186 (GeneID 50107),1,0.238,1.42,0.418,inactive
CG4186 (GeneID 50107),2,0.515,0.461,0.681,inactive
mei-38 (GeneID 31104),1,1.09,1.62,0.587,inactive
Fer3 (GeneID 41411),1,-9.93,-0.484,-1.61,inactive
Fer3 (GeneID 41411),2,-0.636,0.0453,0.61,inactive
Fer3 (GeneID 41411),3,-1.73,-1.73,-0.548,inactive
CenB1A (GeneID 42735),1,-0.68,0.731,-0.339,inactive
CenB1A (GeneID 42735),2,2.8,2.15,1.27,active
t-Grip128 (GeneID 317930),1,0.788,-0.919,0.0162,inactive
t-Grip128 (GeneID 317930),2,0.0142,-0.334,-1.03,inactive
t-Grip128 (GeneID 317930),3,-0.273,-0.0107,-0.281,inactive

10 of these entries in another layout.
Alg11 (GeneID 40402) → Wolbachia per cell robust z, rep 1: -2.07; Wolbachia per cell robust z, rep 2: 1.1; Wolbachia per cell robust z, rep 3: 1.26; Call: inactive
CG42514 (GeneID 8674108) → Wolbachia per cell robust z, rep 1: 0.436; Wolbachia per cell robust z, rep 2: -0.813; Wolbachia per cell robust z, rep 3: -0.598; Call: inactive
Taz (GeneID 36405) #1 → Wolbachia per cell robust z, rep 1: -3.29; Wolbachia per cell robust z, rep 2: -6.21; Wolbachia per cell robust z, rep 3: -3.78; Call: active
Taz (GeneID 36405) #2 → Wolbachia per cell robust z, rep 1: 0.102; Wolbachia per cell robust z, rep 2: -0.658; Wolbachia per cell robust z, rep 3: 0.396; Call: inactive
Taz (GeneID 36405) #3 → Wolbachia per cell robust z, rep 1: -0.987; Wolbachia per cell robust z, rep 2: -0.145; Wolbachia per cell robust z, rep 3: -2.74; Call: inactive
tw (GeneID 31024) → Wolbachia per cell robust z, rep 1: -0.844; Wolbachia per cell robust z, rep 2: -0.875; Wolbachia per cell robust z, rep 3: 0.417; Call: inactive
fu (GeneID 32855) #1 → Wolbachia per cell robust z, rep 1: 0.298; Wolbachia per cell robust z, rep 2: -0.359; Wolbachia per cell robust z, rep 3: 0.428; Call: inactive
fu (GeneID 32855) #2 → Wolbachia per cell robust z, rep 1: -0.00557; Wolbachia per cell robust z, rep 2: -0.152; Wolbachia per cell robust z, rep 3: -3.94; Call: inactive
CG11630 (GeneID 35429) → Wolbachia per cell robust z, rep 1: 1.36; Wolbachia per cell robust z, rep 2: 1.16; Wolbachia per cell robust z, rep 3: -1.66; Call: inactive
Ank (GeneID 43770) #1 → Wolbachia per cell robust z, rep 1: -1.57; Wolbachia per cell robust z, rep 2: 0.862; Wolbachia per cell robust z, rep 3: -0.917; Call: inactive
